Source: paper PMC6299077 (Nature Communications, 2018)

Target: the molecule itself
Test: crystal structure

B1: tHN of BoNT/A1 (beltless translocation domain of botulinum neurotoxin A1, residues K547–K871) (domain or fragment)
chain: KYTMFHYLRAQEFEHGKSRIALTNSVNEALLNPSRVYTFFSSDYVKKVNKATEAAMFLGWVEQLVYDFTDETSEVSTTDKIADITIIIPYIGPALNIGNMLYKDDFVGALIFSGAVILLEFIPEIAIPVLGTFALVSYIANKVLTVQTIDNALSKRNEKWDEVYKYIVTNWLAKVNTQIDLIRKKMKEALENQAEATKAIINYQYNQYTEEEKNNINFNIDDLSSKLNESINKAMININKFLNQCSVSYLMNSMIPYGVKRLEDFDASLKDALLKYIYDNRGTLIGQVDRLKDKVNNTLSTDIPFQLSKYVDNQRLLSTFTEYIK
For B1, the “stoichiometry N” value was 2.
